A mixed list of measured activities; the numbers were collected in NIAID ChemDB.

Blank or dashed fields: not listed here. CCn: concentration that lowers growth or viability of the cells by n%. ICn: concentration for n% inhibition. A number after MIC or MFC names an inhibition level or a share of isolates. a–b is a range or a potency band. Inhibition is in % at the dose shown (toxicity tests: loss of growth or viability). ECn is the concentration giving n% inhibition of infection, replication or growth. Lines come from different laboratories, so protocols vary.

compound,agent,test,tested at,read-out,strain or isolate,target,method,cells,value
O=c1cc(NCc2ccccn2)c2cccnc2n1O,,toxicity,,CC50,,,,HeLa,0.06 µM
Nc1ccc2cc(S(=O)(=O)O)cc(S(=O)(=O)O)c2c1,Herpes simplex virus,culture,50 µg/mL,inhibition,,,cytopathic effect,Human conjunctiva cells,0%
COc1cc(NCc2c(Br)sc3nc(N)nc(N)c23)cc(OC)c1OC,Cryptosporidium parvum,target,,IC50,TYPE 1,Dihydrofolate reductase,,,>10 µM
O=C(NCCc1ccc2c(n1)NCCC2)Nc1csc(-c2ccc(C(F)(F)F)cc2)n1,,toxicity,,CC50,,,,PBMC,14 µM
O=c1cc(N2CCc3ccccc3C2)c2cccnc2n1O,,toxicity,,CC50,,,,HeLa,<100 µM
Fc1ccc(-c2cncc(N3CCN(c4ccncc4)CC3)n2)cc1Cl,Cytomegalovirus,target,,IC50,,UL97 kinase,,,<1 µM
COS(=O)Nc1cccc(-c2cnc3c(c2)c(O)cc(=O)n3O)c1,,toxicity,,CC50,,,,HeLa,<100 µM
CCO/N=C/c1ccc(OCCC2CCN(c3ccc(Cl)nn3)CC2)cc1,Rhinovirus,culture,,EC50,FO 1-3774 (ICAM-1 receptor group 54),,neutral red,KB,0.003 µM
NCCS(=O)(=O)O,Adenovirus,culture,5 µg/mL,inhibition,TYPE 3,,cytopathic effect,Human embryonic lung cells,10%
C=CCc1ccc(OC)c(OC)c1,Candida albicans,culture,,MIC90,2281,,turbidity,,350 µg/mL
CC(=O)c1ccc(N2CCN(c3cncc(-c4ccc(F)cc4)n3)CC2)cc1,Cytomegalovirus,target,1 µM,inhibition,,UL97 kinase,,,<50%
CN(Cc1ccc2nc(N)nc(N)c2n1)c1ccc(Cl)c(Cl)c1,Cryptosporidium parvum,target,,IC50,TYPE 1,Dihydrofolate reductase,,,0.02 µM
CCC(CC)[C@H](NC(C)=O)[C@@H]1[C@H](O)[C@@H](C(=O)O)C[C@H]1N=C(N)N,Influenza A virus,culture,,EC50,H1N1 A/PR/8/34,,,MDCK,1.5 µM
COc1ccc2c(c1OC)Cc1nc(N)nc(N)c1-2,Cryptosporidium parvum,target,,IC50,TYPE 2,Dihydrofolate reductase,,,>10 µM
O=C(NCCc1ccc2c(n1)NCCC2)Nc1ccc2cc[nH]c2c1,,toxicity,,CC50,,,,PBMC,0.89 µM
O=C(Nc1ccc2c(O)c(N=Nc3ccc(N=Nc4ccc(S(=O)(=O)O)cc4)cc3)c(S(=O)(=O)O)cc2c1)c1ccccc1,Adenovirus,culture,50 µg/mL,inhibition,TYPE 3,,cytopathic effect,Human embryonic lung cells,20%
O=C(O)c1cc2nc(-c3ccc(OCc4ccccc4)cc3)cc(-c3ccc(Cl)cc3)n2n1,Hepatitis C virus,target,,IC50,,RNA-dependent RNA polymerase,,,1–10 µM
COc1ccc(-c2cncc(N3CCN(c4ccc(C)cc4)CC3)n2)cc1F,Cytomegalovirus,target,,IC50,,UL97 kinase,,,<100 µM
CCCc1cccc(-c2nc3nc(N)nc(N)c3nc2-c2cccc(CCC)c2)c1,Cryptosporidium parvum,target,,IC50,TYPE 1,Dihydrofolate reductase,,,>10 µM
O=C(O)c1cc2nc(-c3ccccc3)cc(=O)n2[nH]1,Hepatitis C virus,target,,IC50,,RNA-dependent RNA polymerase,,,>10 µM
O=C(NCCc1ccc2c(n1)NCCC2)NCCc1ccc(Cl)cc1Cl,,toxicity,,CC50,,,,PBMC,9 µM
O=C(N[C@@H](Cc1cc2ccccc2[nH]1)C(=O)O)c1cc2nc(-c3ccco3)c(C3CCCCC3)c(=O)n2[nH]1,Hepatitis C virus,target,,IC50,,RNA-dependent RNA polymerase,,,1–10 µM
CC(C)(C)c1ccc(-c2cncc(N3CCN(c4cccc(C(F)(F)F)c4)CC3)n2)cc1,Cytomegalovirus,target,10 µM,inhibition,,UL97 kinase,,,>15%
CCOC(=O)N1CCN(C(=O)c2ccc(N(C)Cc3ccc4nc(N)nc(N)c4n3)cc2)CC1,Cryptosporidium parvum,target,,IC50,TYPE 2,Dihydrofolate reductase,,,3.2 µM
Cc1ccc(N2CCN(c3cncc(-c4ccc(CO)cc4)n3)CC2)c(C)c1,Cytomegalovirus,target,,IC50,,UL97 kinase,,,<100 µM
O=S(=O)([O-])c1cccc(O)c1,Adenovirus,culture,10 µg/mL,inhibition,TYPE 3,,cytopathic effect,Human embryonic lung cells,0%
COc1ccc(OC)c(Cc2sc3nc(N)nc(N)c3c2C)c1,Cryptosporidium parvum,target,,IC50,TYPE 1,Dihydrofolate reductase,,,8.4 µM
Nc1ccc2cc([N+](=O)[O-])cc(S(=O)(=O)[O-])c2c1,Adenovirus,culture,5 µg/mL,inhibition,TYPE 3,,cytopathic effect,Human embryonic lung cells,10%
O=C(Nc1ccc(C(F)(F)F)cc1)NC1CCc2ccccc2C1,,toxicity,,CC50,,,,PBMC,3.5 µM
O=C(Nc1cc(S(=O)(=O)O)cc2cc(S(=O)(=O)O)cc(O)c12)c1ccccc1,Adenovirus,culture,50 µg/mL,inhibition,TYPE 3,,cytopathic effect,Human embryonic lung cells,20%
O=C(O)c1cc2nc(-c3ccccc3)cc(-c3ccc(Cl)cc3Cl)n2n1,Hepatitis C virus,target,,IC50,,RNA-dependent RNA polymerase,,,>10 µM
COc1ccc2ccc3nc(N)nc(N)c3c2c1,Cryptosporidium parvum,target,,IC50,TYPE 2,Dihydrofolate reductase,,,1.2 µM
O=C(NCC1CCc2ccccc2N1)Nc1cccc2ccccc12,,toxicity,,CC50,,,,PBMC,50 µM
O=C(O)c1cc(-c2ccc(Cl)cc2)n2nc(-c3ccccc3)cc2n1,Hepatitis C virus,target,,IC50,,RNA-dependent RNA polymerase,,,>10 µM
O=C(NCC1CCc2ccccc2N1)Oc1ccc(Br)cc1,,toxicity,,CC50,,,,PBMC,50 µM
COc1ccc(-c2cncc(N3CCN(c4ccncc4)CC3)n2)cc1,Cytomegalovirus,target,,IC50,,UL97 kinase,,,<1 µM
O=S(=O)([O-])c1ccccc1S(=O)(=O)[O-],Adenovirus,culture,5 µg/mL,inhibition,TYPE 3,,cytopathic effect,Human embryonic lung cells,0%
O=C(O)c1cnn2c(-c3ccc(Cl)cc3)cc(-c3ccccc3)nc12,Hepatitis C virus,target,,IC50,,RNA-dependent RNA polymerase,,,>10 µM
Cc1cccc(CNC(=O)NCCc2ccc3c(n2)NCCC3)c1,,toxicity,,CC50,,,,PBMC,50 µM
Cc1c(-c2ccc(Cl)c(Cl)c2)sc2nc(N)nc(N)c12,Cryptosporidium parvum,target,,IC50,TYPE 2,Dihydrofolate reductase,,,>10 µM
NS(=O)(=O)O,Herpes simplex virus,culture,5 µg/mL,inhibition,,,cytopathic effect,Human amnion AV3 cells,0%
O=C(O)c1ccc(-c2ccc(-c3nc4cc(C(=O)O)[nH]n4c(=O)c3C3CCCCC3)cc2)cc1,Hepatitis C virus,target,,IC50,,RNA-dependent RNA polymerase,,,1–10 µM
CCOC(=O)/C=C/[C@H](C[C@@H]1CCNC1=O)NC(=O)[C@@H](CC(=O)[C@@H](NC(=O)c1cc(C)on1)C(C)C)Cc1ccc(F)cc1,Rhinovirus,culture,,EC50,Isolate 28,,cytopathic effect / visual reading,OHIO HELA-I,0.01 µg/mL
Fc1ccc(N2CCCCC2)c(NC(=S)c2ccncc2)c1,,host protein,10 µM,inhibition,,EGFR (T790M),kinase activity,,14%
O=C(NCCc1ccc2c(n1)NCCC2)Nc1c(F)cccc1Cl,,toxicity,,CC50,,,,PBMC,50 µM
CC(C)Sc1ccc(-c2cnc3c(C(=O)O)cnn3c2C2CCCCC2)cc1,Hepatitis C virus,target,,IC50,,RNA-dependent RNA polymerase,,,1–10 µM
O=C(NCCc1ccc2c(n1)NCCC2)Nc1ccc(Br)nc1,,toxicity,,CC50,,,,PBMC,0.09 µM
O=c1cc(Nc2ccc(-c3ccccc3)cc2)c2cccnc2n1O,,toxicity,,CC50,,,,HeLa,<100 µM
O=C(O)c1cnn2c(C3CCCCC3)c(-c3ccc(F)cc3F)cnc12,Hepatitis C virus,target,,IC50,,RNA-dependent RNA polymerase,,,1–10 µM

The last 7 rows once more:

CCOC(=O)/C=C/[C@H](C[C@@H]1CCNC1=O)NC(=O)[C@@H](CC(=O)[C@@H](NC(=O)c1cc(C)on1)C(C)C)Cc1ccc(F)cc1 ; agent: Rhinovirus ; test: culture ; read-out: EC50 ; strain or isolate: Isolate 28 ; method: cytopathic effect / visual reading ; cells: OHIO HELA-I ; value: 0.01 µg/mL
Fc1ccc(N2CCCCC2)c(NC(=S)c2ccncc2)c1 ; test: host protein ; tested at: 10 µM ; read-out: inhibition ; target: EGFR (T790M) ; method: kinase activity ; value: 14%
O=C(NCCc1ccc2c(n1)NCCC2)Nc1c(F)cccc1Cl ; test: toxicity ; read-out: CC50 ; cells: PBMC ; value: 50 µM
CC(C)Sc1ccc(-c2cnc3c(C(=O)O)cnn3c2C2CCCCC2)cc1 ; agent: Hepatitis C virus ; test: target ; read-out: IC50 ; target: RNA-dependent RNA polymerase ; value: 1–10 µM
O=C(NCCc1ccc2c(n1)NCCC2)Nc1ccc(Br)nc1 ; test: toxicity ; read-out: CC50 ; cells: PBMC ; value: 0.09 µM
O=c1cc(Nc2ccc(-c3ccccc3)cc2)c2cccnc2n1O ; test: toxicity ; read-out: CC50 ; cells: HeLa ; value: <100 µM
O=C(O)c1cnn2c(C3CCCCC3)c(-c3ccc(F)cc3F)cnc12 ; agent: Hepatitis C virus ; test: target ; read-out: IC50 ; target: RNA-dependent RNA polymerase ; value: 1–10 µM